Test results reported in patent US20250325672A1 (priority 2020, published 2025).

Key:
[1] = molecular target: spike protein S1 of SARS-COV-2 (Severe acute respiratory syndrome coronavirus 2, UniProt P0DTC2); format: binding
[2] = molecular target: Biotinylated 2019-nCoV (COVID-19) S1 protein (16-685), His, Avitag (Severe acute respiratory syndrome coronavirus 2, UniProt P0DTC2); format: binding, SARS-COV-2; details: read-out: Geomean Average KD
[3] = molecular target: SARS-CoV-2 protein used in the SPR assay of Example 2 (not named); assay: SPR
[4] = molecular target: Biotinylated 2019-nCoV (COVID-19) S1 protein (16-685), His, Avitag (SARS-CoV-2), P0DTC2; assay: SPR, Biacore T200, geomean
[5] = molecular target: Biotinylated SARS-CoV-2 (COVID-19) S protein RBD, His, Avitag (SARS-CoV-2), P0DTC2; assay: SPR, Biacore T200, geomean

| Molecule | pKD [1] | Kd [2] | pKD [3] | Kd [4] | Kd [5] |
| --- | --- | --- | --- | --- | --- |
| Ac-(SEQ ID NO: 93) [BCY16903] | 7.92 | 11.1 nM |  |  |  |
| Ac-(SEQ ID NO: 94) [BCY16905] | 7.98 | 10 nM |  |  |  |
| Ac-(SEQ ID NO: 97) [BCY16913] | 7.77 | 15.5 nM |  |  |  |
| Ac-(SEQ ID NO: 99) [BCY16917] | 7.96 | 10.7 nM |  |  |  |
| Ac-(SEQ ID NO: 100) [BCY16918] | 7.94 | 11.3 nM |  |  |  |
| Ac-(SEQ ID NO: 101) [BCY16921] | 7.85 | 14 nM |  |  |  |
| Ac-(SEQ ID NO: 102) [BCY16912] | 7.72 | 19 nM |  |  |  |
| Ac-(SEQ ID NO: 103) [BCY16914] | 7.78 | 16.5 nM |  |  |  |
| Ac-(SEQ ID NO: 104) [BCY16916] | 7.75 | 17.9 nM |  |  |  |
| Ac-(SEQ ID NO: 105) [BCY16919] | 7.68 | 20.8 nM |  |  |  |
| Ac-(SEQ ID NO: 106) [BCY16920] | 7.69 | 20.3 nM |  |  |  |
| Ac-(SEQ ID NO: 107) [BCY16902] | 7.62 | 24 nM |  |  |  |
| Ac-(SEQ ID NO: 108) [BCY16904] | 7.24 | 58.2 nM |  |  |  |
| Ac-(SEQ ID NO: 109) [BCY16907] | 7.46 | 34.4 nM |  |  |  |
| Ac-(SEQ ID NO: 110) [BCY16908] | 7.47 | 33.9 nM |  |  |  |
| Ac-(SEQ ID NO: 111) [BCY16909] | 7.58 | 26.3 nM |  |  |  |
| CKNYDNPVCRFYC (modifications not checked) [BCY16904] |  |  | 7.24 | 58.2 nM |  |

| Molecule | pKD [1] | Kd [2] | pKD [3] | Kd [4] | Kd [5] |
| --- | --- | --- | --- | --- | --- |
| CENMDNPVCRFYC (modifications not checked) [BCY16907] |  |  | 7.46 | 34.4 nM |  |
| CFNIDNPVCRFYC (modifications not checked) [BCY16912] |  |  | 7.72 | 19 nM |  |
| CVNAENPVCRFYC (modifications not checked) [BCY16913] |  |  | 7.77 | 15.5 nM |  |
| CSNPENPVCRFYC (modifications not checked) [BCY16914] |  |  | 7.78 | 16.5 nM |  |
| CMNPDNPVCRFYC (modifications not checked) [BCY16917] |  |  | 7.96 | 10.7 nM |  |
| CYNQENPVCRFYC (modifications not checked) [BCY16918] |  |  | 7.94 | 11.3 nM |  |
| CHNLDNPVCRFYC (modifications not checked) [BCY16920] |  |  | 7.69 | 20.3 nM |  |
| CNNPANPVCRFYC (modifications not checked) [BCY16921] |  |  | 7.85 | 14 nM |  |
| CANPDNPVCRFYC (modifications not checked) [BCY16903] |  |  | 7.92 |  |  |
| CPYREGTGTCLLC (modifications not checked) [BCY19533] |  |  |  |  | 6510 nM |
| CPYAPGNGTCLLC (modifications not checked) [BCY19534] |  |  |  |  | 5230 nM |
| CMNEDNPVCRFYC (modifications not checked) [BCY16916] |  |  | 7.75 |  |  |
| CMNEANPVCRFYC (modifications not checked) [BCY16919] |  |  | 7.68 |  |  |
| CANHDNPVCRFYC (modifications not checked) [BCY16902] |  |  | 7.62 |  |  |
| CMNTDNPVCRFYC (modifications not checked) [BCY16908] |  |  | 7.47 |  |  |
| CLNVDNPVCRFYC (modifications not checked) [BCY16909] |  |  | 7.58 |  |  |
